{"source": "PubChem BioAssay AID1259414 – Drosophila RNAi Screening Center – 2018", "test": "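Fly genes that alter Wolbachia amount inside host cells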 (primary screen)", "cell system": "Drosophila JW18 cells infected with Wolbachia", "knock-down reagent": "long dsRNA against Drosophila genes, 0.25 µg dsRNA per well of a 384-well plate", "timing": "5 days", "treatment": "cells persistently infected with Wolbachia before knock-down; no added drug", "detection": "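Imaged fluorescence in situ signal for Wolbachia 23S rRNA per DAPI-counted host cell, given as a robust z-score within each plate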", "reading the numbers": "Wolbachia per cell robust z: higher = more Wolbachia per host cell than the plate typical", "rule for the call": "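Active if absolute robust z reaches 1.5 in two or more of three replicates, leaving out multi- or no-target dsRNAs, genes unexpressed in JW18 and A1 wells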", "note": "In all, the deposit lists about 24,000 reagents; this is an unselected part of those that have a named target and a result. In the full data, about 1,210 (5%) were called active. 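Inactive calls also include excluded dsRNAs with several or no targets, genes unexpressed in JW18, and well A1, regardless of score.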 A number with no mark means an inactive call. Names joined by + are all predicted targets of the reagent."}
{"predicted target": "Rac1 (GeneID 38146)", "amplicon": "DRSC08688", "Wolbachia per cell robust z, rep 1": 2.7, "Wolbachia per cell robust z, rep 2": 1.19, "Wolbachia per cell robust z, rep 3": 1.07}
{"predicted target": "Rac1 (GeneID 38146)", "amplicon": "DRSC25131", "Wolbachia per cell robust z, rep 1": 0.126, "Wolbachia per cell robust z, rep 2": -0.673, "Wolbachia per cell robust z, rep 3": 1.07}
{"predicted target": "moi + Tgs1", "amplicon": "DRSC24535", "Wolbachia per cell robust z, rep 1": -0.0332, "Wolbachia per cell robust z, rep 2": -2.33, "Wolbachia per cell robust z, rep 3": -0.251}
{"predicted target": "CG32713 (GeneID 318166)", "amplicon": "DRSC22766", "Wolbachia per cell robust z, rep 1": 1.64, "Wolbachia per cell robust z, rep 2": 1.16, "Wolbachia per cell robust z, rep 3": 1.05}
{"predicted target": "CG17177 (GeneID 39601)", "amplicon": "DRSC10257", "Wolbachia per cell robust z, rep 1": 0.00543, "Wolbachia per cell robust z, rep 2": -1.13, "Wolbachia per cell robust z, rep 3": -1.09}
{"predicted target": "ttm2 (GeneID 38049)", "amplicon": "DRSC08268", "Wolbachia per cell robust z, rep 1": 1.07, "Wolbachia per cell robust z, rep 2": -0.857, "Wolbachia per cell robust z, rep 3": 1.05}
{"predicted target": "pb (GeneID 40826)", "amplicon": "DRSC12409", "Wolbachia per cell robust z, rep 1": -5.25, "Wolbachia per cell robust z, rep 2": -3.88, "Wolbachia per cell robust z, rep 3": -2.34}
{"predicted target": "pb (GeneID 40826)", "amplicon": "DRSC12629", "Wolbachia per cell robust z, rep 1": 1.09, "Wolbachia per cell robust z, rep 2": -1.6, "Wolbachia per cell robust z, rep 3": 0.484}
{"predicted target": "pb (GeneID 40826)", "amplicon": "DRSC25059", "Wolbachia per cell robust z, rep 1": 0.907, "Wolbachia per cell robust z, rep 2": -0.0547, "Wolbachia per cell robust z, rep 3": 0.443}

Copied from above (3 entries):
{"predicted target": "Rac1 (GeneID 38146)", "amplicon": "DRSC25131", "Wolbachia per cell robust z, rep 1": 0.126, "Wolbachia per cell robust z, rep 2": -0.673, "Wolbachia per cell robust z, rep 3": 1.07}
{"predicted target": "moi + Tgs1", "amplicon": "DRSC24535", "Wolbachia per cell robust z, rep 1": -0.0332, "Wolbachia per cell robust z, rep 2": -2.33, "Wolbachia per cell robust z, rep 3": -0.251}
{"predicted target": "CG32713 (GeneID 318166)", "amplicon": "DRSC22766", "Wolbachia per cell robust z, rep 1": 1.64, "Wolbachia per cell robust z, rep 2": 1.16, "Wolbachia per cell robust z, rep 3": 1.05}

Further records:
{"predicted target": "Cpr35B (GeneID 34846)", "amplicon": "DRSC01949", "Wolbachia per cell robust z, rep 1": -0.462, "Wolbachia per cell robust z, rep 2": 0.215, "Wolbachia per cell robust z, rep 3": -0.217}
{"predicted target": "Cpr35B (GeneID 34846)", "amplicon": "DRSC22797", "Wolbachia per cell robust z, rep 1": -1.65, "Wolbachia per cell robust z, rep 2": 0.0167, "Wolbachia per cell robust z, rep 3": -5.33}
{"predicted target": "Cpr35B (GeneID 34846)", "amplicon": "DRSC26431", "Wolbachia per cell robust z, rep 1": 0.224, "Wolbachia per cell robust z, rep 2": 0.88, "Wolbachia per cell robust z, rep 3": 0.226}
{"predicted target": "RpS27A (GeneID 34420)", "amplicon": "DRSC03421", "Wolbachia per cell robust z, rep 1": "1.9 (active)", "Wolbachia per cell robust z, rep 2": -3.67, "Wolbachia per cell robust z, rep 3": 2.03}
{"predicted target": "RpS27A (GeneID 34420)", "amplicon": "DRSC30047", "Wolbachia per cell robust z, rep 1": 0.562, "Wolbachia per cell robust z, rep 2": 0.923, "Wolbachia per cell robust z, rep 3": 1.5}
{"predicted target": "ND-B22 (GeneID 34747)", "amplicon": "DRSC03193", "Wolbachia per cell robust z, rep 1": -0.0964, "Wolbachia per cell robust z, rep 2": 0.496, "Wolbachia per cell robust z, rep 3": 0.124}
{"predicted target": "ND-B22 (GeneID 34747)", "amplicon": "DRSC28526", "Wolbachia per cell robust z, rep 1": -2.08, "Wolbachia per cell robust z, rep 2": -0.274, "Wolbachia per cell robust z, rep 3": 0.469}
{"predicted target": "temp (GeneID 31212)", "amplicon": "DRSC18271", "Wolbachia per cell robust z, rep 1": -0.987, "Wolbachia per cell robust z, rep 2": 0.199, "Wolbachia per cell robust z, rep 3": -0.0573}
{"predicted target": "ImpL2 (GeneID 38513)", "amplicon": "DRSC08666", "Wolbachia per cell robust z, rep 1": -0.569, "Wolbachia per cell robust z, rep 2": 0.423, "Wolbachia per cell robust z, rep 3": -0.428}
{"predicted target": "ImpL2 (GeneID 38513)", "amplicon": "DRSC28691", "Wolbachia per cell robust z, rep 1": -6.21, "Wolbachia per cell robust z, rep 2": 0.641, "Wolbachia per cell robust z, rep 3": -0.413}
{"predicted target": "CG14456 (GeneID 40481)", "amplicon": "DRSC11713", "Wolbachia per cell robust z, rep 1": 0.402, "Wolbachia per cell robust z, rep 2": -0.628, "Wolbachia per cell robust z, rep 3": 0.641}
{"predicted target": "CG14456 (GeneID 40481)", "amplicon": "DRSC26740", "Wolbachia per cell robust z, rep 1": 0.0875, "Wolbachia per cell robust z, rep 2": -2.88, "Wolbachia per cell robust z, rep 3": -0.474}
{"predicted target": "Ugt36F1 (GeneID 35137)", "amplicon": "DRSC02601", "Wolbachia per cell robust z, rep 1": 0.421, "Wolbachia per cell robust z, rep 2": 1.01, "Wolbachia per cell robust z, rep 3": -0.124}
{"predicted target": "CG4962 (GeneID 39793)", "amplicon": "DRSC10464", "Wolbachia per cell robust z, rep 1": -2.9, "Wolbachia per cell robust z, rep 2": 0.656, "Wolbachia per cell robust z, rep 3": 1.9}
{"predicted target": "Dph2 (GeneID 41802)", "amplicon": "DRSC16222", "Wolbachia per cell robust z, rep 1": 0.25, "Wolbachia per cell robust z, rep 2": 2.06, "Wolbachia per cell robust z, rep 3": -1.77}
{"predicted target": "Dph2 (GeneID 41802)", "amplicon": "DRSC26401", "Wolbachia per cell robust z, rep 1": 0.352, "Wolbachia per cell robust z, rep 2": 0.392, "Wolbachia per cell robust z, rep 3": 0.0349}
